Measured values from several laboratories, pooled; numbers as filed in NIAID ChemDB.

All rows: whole-cell or culture tests; organism: Mouse cytomegalovirus; endpoint: EC50

An empty or dashed field is not shown. ECn is the concentration giving n% inhibition of infection, replication or growth. Rows are shuffled and stem from different studies.

smiles,strain,cells,method,result
CCOP(=O)([O-])CCCOCn1cnc2c(=O)[nH]c(N)nc21,SMITH,3T3,cytopathic effect,10 µg/mL
O=C(NCc1ccc(Cl)cc1)c1c[nH]c2ccc(C#CCO)cc2c1=O,SMITH,-,plaque count,1.3 µM
Nc1nc2c(ncn2COC(CO)CO)c(=O)[nH]1,SMITH,3T3-L1,plaque count,1 µg/mL
Nc1nc2c(ncn2COC(CO)COP(=O)(O)O)c(=O)[nH]1,SMITH,MRC-5,plaque count,15.9 µM
Nc1nc2c(ncn2COC(CO)CO)c(=O)[nH]1,-,MRC-5,plaque count,1.4 µM
Nc1nc2c(ncn2COC(CO)CO)c(=O)[nH]1,SMITH,MRC-5,plaque count,6.2 µM
CNc1cccc2c(S(=O)(=O)Nc3ccc(NC(=O)C(C)(C)CF)cc3)cccc12,BAY 38-4766-resistant,-,plaque count,14.7 µM
Nc1ccn(C[C@@H](CO)OCP(=O)(O)O)c(=O)n1,-,MRC-5,plaque count,0.26 µM
O[C@@H]1[C@H](O)[C@H](O)CO[C@H]1n1c(Br)nc2cc(Cl)c(Cl)cc21,-,HFF,plaque count,20 µM
Cn1cc(C(=O)NCc2ccc(Cl)cc2)c(=O)c2cc(CN3CCOCC3)ccc21,SMITH,10T1/2,plaque count,0.7 µM
CN(C)c1cccc2c(S(=O)(=O)Nc3ccc(NC(=O)C(C)(C)CO)cc3)cccc12,SMITH,-,plaque count,0.049 µM
Nc1ccn(C[C@@H](CO)OCP(=O)(O)O)c(=O)n1,SMITH,C1271,cytopathic effect,0.1 µg/mL
Nc1ccn(C[C@@H](CO)OCP(=O)(O)O)c(=O)n1,SMITH (WILD TYPE),HFF,plaque count,0.38 µM
O=C(NCc1ccc(Cl)cc1)c1c[nH]c2ccc(CCCO)cc2c1=O,-,-,plaque count,1.6 µM
Nc1nc2c(ncn2C[C@@H]2CC[C@@H](P(=O)(O)O)O2)c(=O)[nH]1,SMITH,3T3-L1,plaque count,0.03 µg/mL
CN(C)c1cccc2c(S(=O)(=O)Nc3ccc(NC(=O)C(C)(C)CO)cc3)cccc12,SMITH,-,plaque count,0.049 µM
OC[C@H]1O[C@@H](n2c(Br)nc3cc(Cl)c(Cl)cc32)[C@H](O)[C@@H]1O,-,HFF,plaque count,37 µM
O=C(NCc1ccc(Cl)cc1)c1c[nH]c2ccc(CCCO)cc2c1=O,SMITH,-,plaque count,1.6 µM
Nc1ccn(C[C@@H](CO)OCP(=O)(O)O)c(=O)n1,SMITH,10T1/2,plaque count,0.04 µM
CC(C)Nc1nc2cc(Cl)c(Cl)cc2n1[C@H]1O[C@@H](CO)[C@H](O)[C@@H]1O,SMITH (WILD TYPE),HFF,plaque count,28.5 µM
CC(=O)OCC(COC(C)=O)OCn1cnc2c(=O)[nH]c(N)nc21,-,HFF,plaque count,9.8 µg/mL
O=C(NO)c1ccc(O)c(O)c1,SMITH,-,plaque count,20.71 µM
Nc1nc2c(ncn2COC(CO)CO)c(=O)[nH]1,-,HFF,plaque count,1.1 µg/mL
CNc1cccc2c(S(=O)(=O)Nc3ccc(NC(=O)C(C)(C)CO)cc3)cccc12,WILD TYPE,-,plaque count,0.033 µM
O=C(NCc1ccc(Cl)cc1)c1cn2c3c(cc(CN4CCOCC4)cc3c1=O)OC(c1cccnc1)C2,-,HFF,plaque count,0.8 µM
CCCCCCCCCCCCCCCCOCCCOP(=O)(O)CO[C@H](CO)Cn1ccc(N)nc1=O,-,MRC-5,plaque count,0.0009 µM
CCCC(=O)OCC(CO)OCn1cnc2c(=O)[nH]c(N)nc21,-,HFF,plaque count,7.7 µg/mL
Nc1nc2c(ncn2[C@@H]2C[C@H](CO)[C@H]2CO)c(=O)[nH]1,SMITH (WILD TYPE),HFF,plaque count,1.9 µM
CCCCCCCCCCCCCCCCCCOCCOP(=O)(O)CO[C@H](CO)Cn1ccc(N)nc1=O,-,MRC-5,plaque count,0.001 µM
CCOP(=O)([O-])CCC(CO)OCn1cnc2c(=O)[nH]c(N)nc21,SMITH,3T3,cytopathic effect,6.1 µg/mL